A mixed list of measured activities; the numbers were collected in NIAID ChemDB.

Shared fields: target-level tests; species: HIV-1; target: Reverse transcriptase; measure: inhibition

Inhibition is in % at the dose shown (toxicity tests: loss of growth or viability).

{"smiles": "[Li+]", "read by": "ELISA", "dose": "10 µM", "value": "3%"}
{"smiles": "CCCN1C(=O)c2cccnc2Oc2ccccc21", "read by": "HPLC", "dose": "1 µM", "value": "31%"}
{"smiles": "CCOc1cc(C)c(Cl)c2c1C(=O)C=CC2=O", "read by": "RT activity", "dose": "50 µg/mL", "value": "60%"}
{"smiles": "O=c1c2cc(O)ccc2oc2cccc(O)c12", "read by": "RT activity / radiometric", "dose": "200 µg/mL", "value": "32.42%"}
{"smiles": "[O]=[V](=[O])[O-]", "read by": "ELISA", "dose": "10 µM", "value": "23%"}
{"smiles": "Cc1coc(N2C(=O)CSC2c2c(Cl)ncnc2Cl)n1", "read by": "RT activity / ELISA / absorbance", "dose": "10 µg/mL", "value": "16.72%"}
{"smiles": "CO[C@H]1/C=C/O[C@@]2(C)Oc3c(C)c(O)c4c(c3C2=O)C(=O)C(SCCOC(=O)CCC(=O)OC[C@H]2O[C@@H](n3cc(C)c(=O)[nH]c3=O)C[C@@H]2N=[N+]=[N-])=C(NC(=O)/C(C)=C\\C=C\\[C@H](C)[C@@H]2OC(C)(C)O[C@@H]([C@@H](C)[C@H](OC(C)=O)[C@@H]1C)[C@@H]2C)C4=O", "read by": "RT activity", "dose": "300 µM", "strain": "IIIB", "value": "48%"}
{"smiles": "CCN1c2ncc(CNc3cccc([N+](=O)[O-])c3)cc2C(=O)N(C)c2ccc(Cl)nc21", "read by": "nucleotide incorporation / radiometric", "dose": "1 µM", "strain": "WT", "value": "86%"}
{"smiles": "CC(=O)c1ccc(C)cc1NC(C(N)=O)c1c(Cl)cccc1Cl", "dose": "4 µg/mL", "value": "59.2%"}
{"smiles": "COc1ccc2[nH]c(=O)oc2c1", "dose": "800 µM", "value": "60.8%"}
{"smiles": "O=C(OC1[C@H](OC(=O)c2cc(O)c(O)c(O)c2)CC(O)(C(=O)O)C[C@H]1OC(=O)c1cc(O)c(O)c(O)c1)c1cc(O)c(O)c(O)c1", "dose": "10 µg/mL", "strain": "IIIB", "value": "96.7%"}
{"smiles": "Clc1ccccc1-c1nc2ccc(Br)cn2c1NC1CCCCC1", "read by": "ELISA", "dose": "50 µM", "value": "80%"}
{"smiles": "[Be+2]", "read by": "ELISA", "dose": "100 µM", "value": "<1%"}
{"smiles": "COc1cc(/C=C/C(=O)CC(=O)/C=C/c2ccc(O)c(OC)c2)ccc1O", "read by": "ELISA", "dose": "12.5 µM", "value": "18%"}
{"smiles": "Cc1cccc2nc(-c3ccccc3Cl)c(NC3CCCCC3)n12", "read by": "ELISA", "dose": "50 µM", "value": "96.6%"}
{"smiles": "O=C1CSC(c2c(Cl)cccc2Cl)N1n1cnnc1", "read by": "RT activity / ELISA / absorbance", "dose": "100 µg/mL", "value": "61.69%"}
{"smiles": "[Rb+]", "read by": "ELISA", "dose": "100 µM", "value": "3%"}
{"smiles": "CC1(C)C=Cc2c(O)c(C(=O)c3ccccc3)c3c(c2O1)C=CC(C)(C)O3", "read by": "RT activity / radiometric", "dose": "200 µg/mL", "value": "36.42%"}
{"smiles": "C1CCNCCNCCCNCCNC1", "dose": "35 µM", "value": "100%"}
{"smiles": "[Sr+2]", "read by": "ELISA", "dose": "100 µM", "value": "2%"}
{"smiles": "O=C(/C=C/c1ccc(O)c(O)c1)O[C@@H]1CC(O)(C(=O)O)C[C@@H](OC(=O)/C=C/c2ccc(O)c(O)c2)C1O", "dose": "5 µg/mL", "strain": "LAI", "value": "18%"}
{"smiles": "CC[C@H](C)[C@H]1NC(=O)[C@@H](NC(=O)[C@@H](CC(C)C)N(C)S(=O)(=O)c2ccc(C)cc2)[C@@H](C)OC(=O)[C@H](Cc2ccc(OC)cc2)N(C)C(=O)[C@@H]2CCCN2C(=O)[C@H](CC(C)C)NC(=O)[C@H](C(C)C)OC(=O)C[C@@H]1O", "read by": "nucleotide incorporation", "dose": "0.1 µg/mL", "value": "~0%"}
{"smiles": "CC(C)(C)[Si](C)(C)OC[C@H]1O[C@@H](n2cnc3c(N)ncnc32)[C@H](O[Si](C)(C)C(C)(C)C)C12OS(=O)(=O)C=C2N", "read by": "ELISA", "dose": "16 µM", "value": "67%"}
{"smiles": "Cc1cccc(N2C(=O)CSC2c2ccc(N(C)C)cc2)n1", "read by": "ELISA", "dose": "10 µg/mL", "value": "34.12%"}
{"smiles": "CC1=C(/C=C/C(C)=C/C=C/C(C)=C/C(=O)O)C(C)(C)CCC1", "read by": "ELISA", "dose": "10 µM", "value": "16%"}
{"smiles": "O=C(/C=C/c1ccc(O)c(O)c1)O[C@H]1[C@@H]2C=CO[C@@H](OC3OC(CO)C(O)C(O)C3O)[C@@H]2[C@@]2(CO)O[C@@H]12", "read by": "RT activity / fluorescence", "dose": "200 µg/mL", "strain": "MC99", "value": "27.3%"}
{"smiles": "Cc1ccc(N2C(=O)CSC2c2c(Cl)ncnc2Cl)nc1", "read by": "RT activity / ELISA / absorbance", "dose": "10 µg/mL", "value": "0%"}
{"smiles": "C1=Cc2cccnc2N(C2CC2)c2ncccc21", "read by": "nucleotide incorporation", "dose": "1 µM", "changes": "RT-Y181C", "value": "53%"}
{"smiles": "O=C(O)[C@H]1O[C@@H](Oc2cc3oc(-c4ccccc4)cc(=O)c3c(O)c2O)[C@H](O)[C@@H](O)[C@@H]1O", "dose": "500 µg/mL", "strain": "LAV", "value": "99.14%"}
{"smiles": "COc1c2c(c3c(c1C(=O)c1cccc(O)c1)OC(C)(C)C=C3)OC(C)(C)C=C2", "read by": "RT activity / radiometric", "dose": "200 µg/mL", "value": "10.08%"}
{"smiles": "C[C@@H]1[C@H](O)[C@@H](C)/C=C/C=C/C=C/C=C/C=C/C=C/C=C/[C@H](O[C@@H]2O[C@H](C)[C@@H](O)[C@H](N)[C@@H]2O)CC2O[C@](O)(CC(O)C(O)CCC(O)CC(O)CC(O)CC(=O)O[C@H]1C)CC(O)C2C(=O)O.O=S(=O)(O)O", "read by": "RT activity", "dose": "200 µg/mL", "value": "80%"}
{"smiles": "O=C1CSC(c2c(F)cccc2F)N1n1cnnc1", "read by": "RT activity / ELISA / absorbance", "dose": "100 µg/mL", "value": "47.03%"}
{"smiles": "N#Cc1ccc2nc(-c3ccccc3Cl)c(NC3CCCCC3)n2c1", "read by": "ELISA", "dose": "50 µM", "value": "88.2%"}
{"smiles": "CCN1c2ncc(COc3cc[n+]([O-])c(C(F)(F)F)c3)cc2C(=O)N(C)c2ccc(Cl)nc21", "read by": "nucleotide incorporation / radiometric", "dose": "1 µM", "changes": "RT-Y181C", "value": "89%"}
{"smiles": "COc1c(OC)c(O)c2c(=O)c(OC)c(-c3ccc(C)cc3)oc2c1OC", "read by": "RT activity / ELISA", "dose": "200 µg/mL", "value": "35.35%"}
{"smiles": "O=C(/C=C/c1ccc(O)c(O)c1)O[C@H]1[C@H](O)C[C@](O)(C(=O)O)C[C@H]1OC(=O)/C=C/c1ccc(O)c(O)c1", "dose": "10 µg/mL", "strain": "IIIB", "value": "94.5%"}
{"smiles": "Clc1ccc(-c2nc3ccccn3c2NC2CCCCC2)c(Cl)c1", "read by": "ELISA", "dose": "50 µM", "value": "60.1%"}
{"smiles": "Cc1cc(O)c2c(c1)C(=O)C=CC2=O", "read by": "RT activity", "dose": "12.5 µg/mL", "value": "80%"}
{"smiles": "C=C[C@@](C)(O)CC/C(C)=C/C(=O)O[C@H]1[C@@H]2C=CO[C@@H](OC3OC(CO)C(O)C(O)C3O)[C@@H]2[C@@]2(CO)O[C@@H]12", "read by": "RT activity / fluorescence", "dose": "200 µg/mL", "strain": "MC99", "value": "3.5%"}
{"smiles": "COc1cc2c3cc1Oc1c(OC)c(OC)cc4c1[C@@H](Cc1cccc(c1)Oc1ccc(c(O)c1)C[C@@H]3N(C)CC2)N(C)CC4", "dose": "500 µg/mL", "strain": "LAV", "value": "40.29%"}
{"smiles": "O=C1CSC(c2c(F)cccc2Cl)N1c1cccc(C(F)(F)F)c1", "read by": "ELISA", "dose": "10 µg/mL", "value": "0%"}
{"smiles": "COc1cc(C)c(Cl)c2c1C(=O)C=CC2=O", "read by": "RT activity", "dose": "50 µg/mL", "value": "70%"}
{"smiles": "CO[C@H]1/C=C/O[C@@]2(C)Oc3c(C)c(O)c4c(c3C2=O)C(=O)C(SCCOC(=O)CCC(=O)OC[C@H]2O[C@@H](n3cc(C)c(=O)[nH]c3=O)C[C@@H]2N=[N+]=[N-])=C(NC(=O)/C(C)=C\\C=C\\[C@H](C)[C@H](O)[C@@H](C)[C@@H](O)[C@@H](C)[C@H](OC(C)=O)[C@@H]1C)C4=O", "read by": "RT activity", "dose": "300 µM", "strain": "IIIB", "value": "61%"}
{"smiles": "COc1cc(-c2c(C)c(CO)c(O[C@@H]3O[C@H](CO)[C@@H](O)[C@H](O)[C@H]3O)c3cc(OC)c(OC)cc23)ccc1O", "read by": "nucleotide incorporation / radiometric", "dose": "200 µM", "value": "0%"}
{"smiles": "Cc1ccc(CN2C(=O)CSC2c2c(F)cccc2Cl)o1", "read by": "ELISA", "dose": "10 µg/mL", "value": "57.69%"}
{"smiles": "CCc1c(Sc2ccccn2)n(COCc2ccccc2)c(=O)[nH]c1=O", "dose": "50 µM", "changes": "RT-K103N", "value": "50%"}
{"smiles": "CO[C@H]1/C=C/O[C@@]2(C)Oc3c(C)c(O)c4c(c3C2=O)C(=O)C(SCCOC(=O)CCCC(=O)OC[C@@H]2O[C@H](n3cc(C)c(=O)[nH]c3=O)C[C@H]2N=[N+]=[N-])=C(NC(=O)/C(C)=C\\C=C\\[C@H](C)[C@@H]2OC(C)(C)O[C@@H]([C@@H](C)[C@H](OC(C)=O)[C@@H]1C)[C@@H]2C)C4=O", "read by": "RT activity", "dose": "300 µM", "strain": "IIIB", "value": "45%"}
{"smiles": "O=C1CSC(c2cccnc2)N1Cc1ccco1", "read by": "ELISA", "dose": "10 µg/mL", "value": "9.41%"}
{"smiles": "[O]=[V+2]", "read by": "ELISA", "dose": "100 µM", "value": "26%"}
{"smiles": "O=C1CSC(c2c(F)cccc2Cl)N1Cc1ccco1", "read by": "ELISA", "dose": "10 µg/mL", "value": "43.56%"}
{"smiles": "CCN1c2ncc(Cc3cccc(O)c3)cc2C(=O)N(C)c2ccc(Cl)nc21", "read by": "nucleotide incorporation / radiometric", "dose": "1 µM", "strain": "WT", "value": "97%"}
{"smiles": "COC(=O)C(=O)OC1(C(=O)O)C[C@@H](OC(=O)/C=C/c2ccc(O)c(O)c2)C(O)[C@H](OC(=O)/C=C/c2ccc(O)c(O)c2)C1", "dose": "5 µg/mL", "strain": "LAI", "value": "56%"}
{"smiles": "Cc1cc(O)c2c(c1F)C(=O)C=CC2=O", "read by": "RT activity", "dose": "100 µg/mL", "value": "100%"}
{"smiles": "O=C(/C=C/c1ccc(O)cc1)O[C@H]1[C@@H]2C=CO[C@@H](OC3OC(CO)C(O)C(O)C3O)[C@@H]2[C@@]2(CO)O[C@@H]12", "read by": "RT activity / fluorescence", "dose": "200 µg/mL", "strain": "MC99", "value": "12.6%"}
{"smiles": "COc1cc(-c2cc(OC)c3c(c2)OCO3)ccc1O", "read by": "RT activity / radiometric", "dose": "200 µg/mL", "value": "53.83%"}
{"smiles": "O=C(O)CP(=O)(O)O", "read by": "ELISA", "dose": "700 µM", "value": "9%"}
{"smiles": "O=C1C[C@@H](c2ccc(O)cc2)Oc2cc(O)cc(O)c21", "read by": "RT activity / ELISA", "dose": "200 µg/mL", "value": "44.22%"}
{"smiles": "Clc1ccccc1-c1nc2ccccn2c1NC1CCCC1", "read by": "ELISA", "dose": "50 µM", "value": "81.9%"}
{"smiles": "O=C(O)/C=C/c1ccc(O)cc1", "read by": "RT activity / ELISA", "dose": "200 µg/mL", "value": "17.88%"}
{"smiles": "CC1SC(c2c(F)cccc2F)N(Cc2ccco2)C1=O", "read by": "ELISA", "dose": "10 µg/mL", "value": "0%"}

8 of the rows above, restated:

smiles,read by,dose,changes,strain,value
Cc1ccc(N2C(=O)CSC2c2c(Cl)ncnc2Cl)nc1,RT activity / ELISA / absorbance,10 µg/mL,,,0%
C=C[C@@](C)(O)CC/C(C)=C/C(=O)O[C@H]1[C@@H]2C=CO[C@@H](OC3OC(CO)C(O)C(O)C3O)[C@@H]2[C@@]2(CO)O[C@@H]12,RT activity / fluorescence,200 µg/mL,,MC99,3.5%
CC(=O)c1ccc(C)cc1NC(C(N)=O)c1c(Cl)cccc1Cl,,4 µg/mL,,,59.2%
O=C1CSC(c2c(F)cccc2Cl)N1c1cccc(C(F)(F)F)c1,ELISA,10 µg/mL,,,0%
[Sr+2],ELISA,100 µM,,,2%
CCN1c2ncc(Cc3cccc(O)c3)cc2C(=O)N(C)c2ccc(Cl)nc21,nucleotide incorporation / radiometric,1 µM,,WT,97%
Cc1cc(O)c2c(c1)C(=O)C=CC2=O,RT activity,12.5 µg/mL,,,80%
O=C(O)[C@H]1O[C@@H](Oc2cc3oc(-c4ccccc4)cc(=O)c3c(O)c2O)[C@H](O)[C@@H](O)[C@@H]1O,,500 µg/mL,,LAV,99.14%

An empty or dashed field is not shown. Lines come from different laboratories, so protocols vary.